Key:
Assay in all cases: BLI
Settings in all cases: both partners purified
fHbp mutant 0012 = target: T1, fHbp mutant 0012 (Neisseria meningitidis, fHbp v1.1 mutant, point mutant)
T1 chain: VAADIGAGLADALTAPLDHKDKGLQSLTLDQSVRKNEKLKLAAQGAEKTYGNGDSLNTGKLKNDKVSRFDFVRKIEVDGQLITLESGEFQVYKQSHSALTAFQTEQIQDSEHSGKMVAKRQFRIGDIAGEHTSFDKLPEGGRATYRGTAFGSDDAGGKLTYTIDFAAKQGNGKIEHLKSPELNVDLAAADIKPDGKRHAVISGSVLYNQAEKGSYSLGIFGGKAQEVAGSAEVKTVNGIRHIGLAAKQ

fHbp mutant 0018 = target: T2, fHbp mutant 0018 (Neisseria meningitidis, fHbp v1.1 mutant, point mutant)
T2 chain: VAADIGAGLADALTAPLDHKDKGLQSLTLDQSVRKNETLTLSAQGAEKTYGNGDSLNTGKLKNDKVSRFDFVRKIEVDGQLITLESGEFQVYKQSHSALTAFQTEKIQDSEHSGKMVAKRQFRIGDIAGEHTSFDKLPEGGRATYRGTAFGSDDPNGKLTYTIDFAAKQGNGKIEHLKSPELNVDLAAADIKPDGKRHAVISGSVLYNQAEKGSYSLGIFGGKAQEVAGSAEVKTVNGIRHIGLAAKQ

fHbp m000019 = target: T3, fHbp m000019 (Neisseria meningitidis, fHbp v1.1 …, point mutant)
T3 chain: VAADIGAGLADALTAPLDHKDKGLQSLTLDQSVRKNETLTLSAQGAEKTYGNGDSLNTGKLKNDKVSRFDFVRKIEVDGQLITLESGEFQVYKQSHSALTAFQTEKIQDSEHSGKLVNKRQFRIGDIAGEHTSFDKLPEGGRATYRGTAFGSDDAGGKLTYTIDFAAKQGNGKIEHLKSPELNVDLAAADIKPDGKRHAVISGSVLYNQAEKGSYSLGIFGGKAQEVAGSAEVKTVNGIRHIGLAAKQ

fHbp mutant 0014 = target: T4, fHbp mutant 0014 (Neisseria meningitidis, fHbp v1.1 mutant, point mutant)
T4 chain: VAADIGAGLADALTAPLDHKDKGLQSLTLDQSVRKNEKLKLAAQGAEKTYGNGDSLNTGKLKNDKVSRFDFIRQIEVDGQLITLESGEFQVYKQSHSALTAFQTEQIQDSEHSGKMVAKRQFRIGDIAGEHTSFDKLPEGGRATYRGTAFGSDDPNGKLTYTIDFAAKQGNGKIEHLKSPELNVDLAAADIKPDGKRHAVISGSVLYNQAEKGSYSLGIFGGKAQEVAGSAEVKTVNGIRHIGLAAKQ

fHbp mutant 0017 = target: T5, fHbp mutant 0017 (Neisseria meningitidis, fHbp v1.1 mutant, point mutant)
T5 chain: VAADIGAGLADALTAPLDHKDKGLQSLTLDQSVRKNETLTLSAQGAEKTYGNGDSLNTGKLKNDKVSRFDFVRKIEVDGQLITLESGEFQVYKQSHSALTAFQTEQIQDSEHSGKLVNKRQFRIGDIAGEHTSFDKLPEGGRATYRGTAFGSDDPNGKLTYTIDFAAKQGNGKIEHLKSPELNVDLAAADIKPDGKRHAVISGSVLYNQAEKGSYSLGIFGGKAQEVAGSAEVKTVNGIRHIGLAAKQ

B1: mAb JAR5 (mouse) (antibody, V domains shown)
VH: QVQMQQPGAELVKPGASVKLSCKASGYTFISYWMHWVKQRPGRGLEWIGRIAPDTGIIYYNEKFKNKATLTVDTPSSTAYMQLNSLTSEDSAVYYCARYLKYDGSTYRFDYWGQGTTLTVSS
VL: DIVMTQAAPSVPVTPGESVSISCRSSKSLLHSNGNTYLFWFLQRPGQSPQLLIYRMSNLASGVPDRFSGSGSGTSFTLRISRVEAEDVGVYYCMQHLEYPYTFGGGTKLEIK
notes: source: Expi293, purified (MabSelect SuRe, SEC); copies: 2 + 2
B1 showed a koff (fHbp mutant 0012) of 0.000654 s⁻¹, a kon (fHbp mutant 0012) of 1.564e+06 ± 7740 M⁻¹ s⁻¹ and a koff (fHbp mutant 0018) of 0.000278 s⁻¹. It also gave a koff (fHbp m000019) of 0.000238 s⁻¹, a kon (fHbp mutant 0014) of 1.322e+06 ± 6980 M⁻¹ s⁻¹ and a koff (fHbp mutant 0017) of 2e-05 s⁻¹.

From PMC12319226 (Frontiers in Bioinformatics, 2025)
